Numbering of substitutions follows the chain as printed. Human monoclonal antibodies against the spike receptor-binding domain (heavy:light variable regions). IC50 against pseudoviruses bearing the spike of naturally observed variants; lower = stronger; >10 µg/ml means not reached at the top dose. No active / inactive call. The stated detection limit is 0.0005 µg/ml; values near or below 0.001 µg/ml lie at the floor of the assay.
B1: DH1214 (protein)
chain 1: QVQLVQSGAEVKKPGSSVKVSCKASGGTFRSYAISWVRQAPGQGLEWMGRIIPMFGIANYAQKFQDRVTITADKSTSTAYMELSSLRSEDTAVYYCAENLQDDSGTLYSGGWGQGTLVTVSS
chain 2: QTVVTQEPSLTVSPGGTVTLTCASSTGAVTSGYYPNWFQQKPGQAPRALIYSTSNKHSWTPARFSGSLLGGKAALTLSGVQPEDEAEYYCLLYYGGASGWVFGGGTKLTVL
B2: BD56-656 (protein)
chain 1: EVQLVQSGAEVKKPGDSLKISCKTSGYTFTAYCIGWVRQMPGKGLEWMGIVYPSDSKTRYSPSFQGQVTMSADKSITTAYLQWSSLKASDTAMYYCARIAGEPPDFFDYWGQGTLVTVSS
chain 2: SYVLTQTPSVSVAPGKTARITCGGNDIGSKSVQWYQQKPGQAPVMVIYYDSDRPSGIPERFSGSNSGNTATLTISRVEAGDEADYYCQVWDGSSGLFYVFGSGTKVTVL
B3: BD56-657 (protein)
chain 1: QMQLVQSGPEVKKPGTSVKVSCKASGFTFSKSAVQWVRQARGQRLEWIGWIVVGSGDTDYAQKLQGRLTITRDMSTDTAYMEISSLRSEDTAVYYCAAPSCNNTICYDGFNIWGQGTMVSVSS
chain 2: EIVLTQSPGTLSFSPGQRATLSCRASQSVSSNYLGWYQQKPGQAPRLLIYGASSRATGIPDRFSGSGSRTDFTLSISRLEPEDFAVYYCQYYRTSPFTFGPGTKVDLK
B4: BD56-661 (protein)
chain 1: QVQLVQSGAEVKKPGASVKVSCKASGFTFSAYYVHWVRQAPGQGLEWMGIINPSGTSYAQKFQGRVTMTRDTSTSTVYMELSSLTSEDTAVYYCAREIPPPLGNTWFDPWGQGTLVTVSS
chain 2: SYVLTQPHSVSVAPGKTARITCGGNDIGSKSVHWYQQKPGQAPVLVVHDDNDRPSGIPERFSGSNSANTATLTISRVEAGDEADFYCQVWDGSRDPVVFGGGTKLTVL
B5: BD56-663 (protein)
chain 1: QVQLVESGGGVVQPGRSLRLSCAASGFTFIRNAMHWVRQAPGKGLEWVALMSHDGSTKYYADSVKGRFTISRDNSKNTLYLQMTSLRVEDTAVYYCANQPDSSGYYYPGYLDYWGQGTLVTVSS
chain 2: SYVLTQPPSVSVAPGQTARITCGGDSIGSKNVHWYQQRPGQAPVVVVYYDTDRPSGIPERFSGSNSGNTATLSISRVEAGDEADYYCQVWDSTPDPVVFGGGTKLTVL
B6: TAU-1109 (protein)
chain 1: QVQLVQSGPEVKKPGASVKVSCKASGYTFTSYSINWVRQAPGQGLEWMGWISTYNGNTNYAQRLQGRVTMTTDTSTGTAHMELRSLRSDDTAIYYCAREEPLYCSGGSCYEFQHWGQGTLVTVSS
chain 2: EIVLTQSPARLSLSPGERATLSCRASQSVSSDLAWYQQKPGQAPRLLIYDASHRATGIPARFSGSGSGTDFTLTISSLEPEDFAVYYCQQRINWPPIFTFGPGTKVDIK
B7: BD56-669 (protein)
chain 1: QVQLEQSGAEVKKPGSSVKVSCKASGGTFSSYTISWVRQAPGQGLEWMGRIIPILGIPNYAQKFQGRVTVTADRSTSTAYMELSSLRSEDTAVYYCARDQGYSGYGVNWYFDLWGRGTLVIVSS
chain 2: QSVLTQPPSVSGAPGQRVTISCTGSSSNIGAGYDVHWYQHLPGTAPKLLIYGNSNRPSGVPDRFSGSKSGTSASLAITGLQAEDEADYYCQSYDSSLSDCVFGTGTKVTVL
B8: BD56-676 (protein)
chain 1: QVQLVQSGAEVKKPGASVKVSCKASGYTFISYGISWVRQAPGQGLEWMGWITAYNGHTNSAQRLQGRVTMTTDTSTSTAYMELRNLRSDDTAVYYCARDPGYDILTGSYTMNHDAFDIWGQGTLVTVSS
chain 2: SYELTQPSSVSVSPGQTARITCSGDVLAKKYARWFQQRPGQAPVLVIYKDSERPSGVPDRFSGSSSGTTVTLTISGAQVEDEADYYCFSAADNDRVFGGGTKLTVL
B9: BD56-682 (protein)
chain 1: EVQLVESGGGVVQPGGSLRLSCVASGFNSDDYAMHWVRQAPGKGLEWVSLISGDGGWVDYADSVKGRFTISRDNSKNSLYLQMNSLRGDDTGLYYCAKDTALHWGGAYTGDGAFDIWGQGTMVTVSS
chain 2: QSVLTQPPSASGTPGQRVTISCSGSSSNIATYNVNWYQQFPGTAPKLLIYSNNQRPAGVPDRFSGSKSGTSASLAISGLQSEDEAEYSCAVWDDNLNVPVFGGGTKLTVL
B10: BD56-683 (protein)
chain 1: QVQLVESGGGVVQPGRSLRLSCAASGFTFSSYGMHWVRQAPGKGLEWVSVISYDGSNKQYADSVKGRFTISRDNSKNTLYLQMNSLRAEDTAVYFCAKEGGHCSSTICNTKDYFDFWGQGTLVTVFS
chain 2: B2 chain 2 with T7P, N25D, D26S, S31G, Q33H, M45L, I47V, Y49D, G92S, S102T
B11: BD56-685 (protein)
chain 1: QVQLVQSGAEVKKPGSSIKVSCKWASGGSFSSYPISWVRQAPGQGLEWMGGIIPIFGTPNYAQKFQGRVAITADESTSTAYMELSSLRSDDTGVYYCATEADVVGPTFRYLQYWGQGTLVTVSS
chain 2: DIVMTQSPDSLAVSLGERATINCKSSQSVLLRSNNKNYVAWYQQKPGQPPKLLIYWASTRESGVPDRFSGSGSGTDFTLTISSVQAEDVAVYYCQQYYIVPALTFGGGTKVEIK
B12: BD56-686 (protein)
chain 1: QVQLQESGPGLVKPSQTLALTCTVSGGSISSGGYYWSWIRQHPGKGLEWIGYIYYSGITYYNPSLESRVTISIDTSKNQFSLKLRSVTAADTAVYYCARDGPSIAAPSPWFDPWGQGTLVTVSS
chain 2: EIVLTQSPATLSLSPGERATLSCRASQSVSSYLAWYQQKPGQAPRLLIYDASYRATGIPARFSGSGSGTDFTLTISSLEPEDFAVYYCQQRFNWPPFTFGQGTRLEIK

Target: SARS-CoV-2 Omicron BA.1 spike pseudovirus
Experiment: pseudovirus neutralization IC50; higher = weaker neutralization
Description: (§1)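 Single-round VSV luciferase pseudovirus mixed with antibody dilutions for 1 h and put on Huh-7 cells for about a day; IC50 from the dose curve.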

Binder	pseudovirus neutralization IC50
B1	> 10 µg/mL
B2	> 10 µg/mL
B3	0.00129 µg/mL
B4	> 10 µg/mL
B5	> 10 µg/mL
B6	5.88 µg/mL
B7	2.3 µg/mL
B8	> 10 µg/mL
B9	0.133 µg/mL
B10	> 10 µg/mL
B11	3.4 µg/mL
B12	> 10 µg/mL

Target: SARS-CoV-2 Omicron BA.2 spike pseudovirus
Experiment: as above
Description: as §1

Binder	pseudovirus neutralization IC50
B1	> 10 µg/mL
B2	> 10 µg/mL
B3	0.000765 µg/mL
B4	> 10 µg/mL
B5	> 10 µg/mL
B6	4.75 µg/mL
B7	2.51 µg/mL
B8	> 10 µg/mL
B9	0.141 µg/mL
B10	> 10 µg/mL
B11	2.62 µg/mL
B12	> 10 µg/mL

Target: SARS-CoV-2 Omicron BA.2.75 spike pseudovirus
Experiment: as above
Description: as §1

Binder	pseudovirus neutralization IC50
B1	> 10 µg/mL
B2	> 10 µg/mL
B3	0.00248 µg/mL
B4	> 10 µg/mL
B5	> 10 µg/mL
B6	2.22 µg/mL
B7	2.11 µg/mL
B8	> 10 µg/mL
B9	0.125 µg/mL
B10	> 10 µg/mL
B11	2.01 µg/mL
B12	> 10 µg/mL

Target: SARS-CoV-2 Omicron BA.5 spike pseudovirus
Experiment: as above
Description: as §1

Binder	pseudovirus neutralization IC50
B1	> 10 µg/mL
B2	> 10 µg/mL
B3	4.54 µg/mL
B4	> 10 µg/mL
B5	> 10 µg/mL
B6	> 10 µg/mL
B7	> 10 µg/mL
B8	> 10 µg/mL
B9	0.093 µg/mL
B10	> 10 µg/mL
B11	3.95 µg/mL
B12	> 10 µg/mL

Target: SARS-CoV-2 Omicron BQ.1.1 spike pseudovirus
Experiment: as above
Description: as §1

Binder	pseudovirus neutralization IC50
B1	> 10 µg/mL
B2	> 10 µg/mL
B3	> 10 µg/mL
B4	> 10 µg/mL
B5	> 10 µg/mL
B6	> 10 µg/mL
B7	> 10 µg/mL
B8	> 10 µg/mL
B9	> 10 µg/mL
B10	> 10 µg/mL
B11	> 10 µg/mL
B12	> 10 µg/mL

Target: SARS-CoV-2 Omicron XBB spike pseudovirus
Experiment: as above
Description: as §1

Binder	pseudovirus neutralization IC50
B1	> 10 µg/mL
B2	> 10 µg/mL
B3	> 10 µg/mL
B4	> 10 µg/mL
B5	> 10 µg/mL
B6	> 10 µg/mL
B7	> 10 µg/mL
B8	> 10 µg/mL
B9	> 10 µg/mL
B10	> 10 µg/mL
B11	> 10 µg/mL
B12	> 10 µg/mL

Target: SARS-CoV-2 early D614G spike pseudovirus
Experiment: as above
Description: as §1

Binder	pseudovirus neutralization IC50
B1	0.0577 µg/mL
B2	> 10 µg/mL
B3	0.00244 µg/mL
B4	4.38 µg/mL
B5	> 10 µg/mL
B6	2.71 µg/mL
B7	2.74 µg/mL
B8	> 10 µg/mL
B9	0.129 µg/mL
B10	> 10 µg/mL
B11	3.34 µg/mL
B12	> 10 µg/mL

Source: the supplement of paper PMC9931576
